# PSTVd stem 15 mutant pool in Nicotiana benthamiana

Source: Wu et al. 2024 (doi:10.1371/journal.ppat.1012142), supplementary data.

PSTVd intermediate strain, stem 15: wild type CUGGAGCGAUCGCUUCGG, pool pattern CUGGAGCGAUNGNNUNNG; upper and lower strand joined, each 5' to 3', the first 9 letters being the upper strand.

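Three N. benthamiana plants were inoculated with the whole mutant pool. Samples came from the inoculated region at 5 days, the leaf margin at 10 and upper systemic leaves at 12.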

Numbers give reads per thousand; 0 = not seen among the reads, higher = more abundant. Each value is the mean of three plants. "Pool" is the share in the plasmid pool used as inoculum, on the same scale. The inoculated region was read from the minus strand, the other sites from the plus strand.

sequence,pool,inoculated region,leaf margin,systemic leaves
CUGGAGCGAUGGAGUAAG,1.00,0.260,0.0229,0
CUGGAGCGAUAGUCUUAG,1.03,1.64,0.656,0.716
CUGGAGCGAUGGACUGAG,2.89,3.14,0.678,0
CUGGAGCGAUGGCAUGAG,0.840,0.254,0.0648,0
CUGGAGCGAUUGAAUGGG,0.808,0.273,0.0441,0
CUGGAGCGAUAGUGUUAG,1.36,1.83,0.785,0.484
CUGGAGCGAUUGGUUCAG,1.65,1.30,0.0229,0.0133
CUGGAGCGAUGGUGUAAG,0.921,0.255,0.0387,0
CUGGAGCGAUAGCGUAUG,0.824,0.328,0.0229,0
CUGGAGCGAUAGCCUACG,0.986,0.255,0.0341,0
CUGGAACGAUAGGCUUUG,0.0162,0,0,0
CUGGAGCGAUCGGAUCGG,0.954,0.288,0.0229,0
CUGGAGCGAUCGGCUGAG,0.792,0.343,0.0557,0
CUGGAGCGAUAGUUUUUG,0.679,0.346,0.0182,0
CUGGAGCGAUGGGUUCAG,1.68,0.919,0.0557,0.0133
CUGGAGCGAUAGAAUCUG,0.760,0.299,0.0227,0
CUGGAGCGAUCGAUUGGG,0.760,0.330,0.0365,0
CUGGAGCGAUCGUCUCAG,0.582,1.23,0.0526,0
CUGGAGCGAUUGUGUAGG,1.05,0.579,0.0350,0
CUGGAGCGAUGGGAUGAG,1.07,0.347,0,0
CUGGGGCGAUAGCGUCGG,0.0162,0,0,0
CUGGAGCGAUGGGAUGUG,0.824,0.215,0.0276,0
AUGGAGCGAUUGCUUUAG,0.0162,0,0,0
CUGGAGCGAUGGGGUAUG,1.65,0.649,0.0191,0
CUGGAGCGAUCGCCUUUG,0.857,0.268,0.0573,0
CUGGAGCGAUUGGCUCGG,4.01,3.63,0.0265,0.0281
CUGGAGCGAUAGGAUCAG,0.711,0.300,0.0440,0
CUGGAGCGAUCGUUUUUG,0.873,0.299,0.0378,0
CUGGAGCGAUCGUCUCCG,2.08,1.41,0.0532,0.00664
CUGGAGCGAUUGGAUGCG,0.695,0.298,0.0594,0
CUGGAGCGAUGGGGUCCG,0.760,0.202,0.0488,0
CUGGAGCGAUUGUAUAAG,0.760,1.56,0.0556,0
CUGGAGCGAUUGACUUGG,0.679,1.20,0.0106,0
CUGGAGCGAUUGGCUGCG,0.889,0.334,0.0472,0
CUGGAGCGAUUGAAUUUG,2.18,1.44,0.0636,0
CUGGAGCGAUCGUUUGCG,0.857,0.345,0.0197,0
CUGGAGCGAUUGUCUGAG,0.921,1.58,0.598,0.641
CGGGAGCGAUGGUGUUUG,0.0162,0,0,0
CUGGAGUGAUAGAGUUUG,0.0162,0,0,0
CUGGAGCGAUGGACUUCG,0.808,0.288,0.0320,0
CUGGAGCGAUUGUGUUCG,0.743,1.73,0.0792,0
CUGGAGCGAUGGGCUUGG,0.792,0.234,0,0
CUGGAGCGAUCGCGUCCG,2.17,0.564,0.0976,0.0214
CUGGAGCGAUUGCCUCUG,0.937,0.271,0.0320,0
CUGGAGCGAUAGAGUCUG,0.905,0.319,0.0244,0
CUGGAGCGAUGGACUGCG,0.889,0.327,0.0235,0
CUGGAGCGAUCGCCUGCG,0.840,0.265,0.0726,0
CUGGAGCGAUUGAAUAAG,0.905,0.270,0.0463,0
CUGGAGCGAUCGAGUGCG,0.873,0.358,0.0350,0
CUGGAGCGAUCGGUUGCG,1.10,0.294,0.0340,0
CUGGAGCGAUUGGCUAAG,0.776,1.44,0.0329,0
CUGGAGCGAUGGCGUGAG,1.03,0.231,0.0213,0
CUGGAGCGAUUGAGUUAG,0.727,1.12,0.0525,0
CUGGAGCGAUGGGCUGCG,0.986,0.296,0.0799,0
CUGGAGCGAUCGUCUGCG,0.760,0.276,0.0394,0
CUGGAGCGAUGGAGUAGG,0.824,0.300,0.0450,0
CUGGAGCGAUUAUAUUGG,0.0323,1.16,0.596,0.614
AUGGAGCGAUAGGUUUUG,0.0162,0,0,0
CUGGAGCGAUCGAUUCGG,1.10,0.554,0.295,0.149
CUGGAGCGAUCGCUUCGG,10.2,321,811,889
CUGGAGCGAUGGUAUGCG,0.840,0.261,0.0472,0

Extract of 3 entries:

sequence	pool	inoculated region	leaf margin	systemic leaves
CUGGAGCGAUAGUGUUAG	1.36	1.83	0.785	0.484
CUGGAGCGAUUGUGUUCG	0.743	1.73	0.0792	0
CUGGAGCGAUUGGAUGCG	0.695	0.298	0.0594	0

Samples held 36,693 to 63,082 reads, so the smallest values rest on one or two reads. The authors trace changes outside the varied positions to PCR and sequencing errors or to mutation in the plant; presence does not show that a variant is infectious alone. Wild type was 10.2 per thousand in the pool and the most common sequence in every sample (inoculated region 285, 367, 312; leaf margin 785, 865, 782; systemic leaves 854, 898, 915).